Laboratory results: PubChem BioAssay AID504761 (Drosophila RNAi Screening Center, 2011)
In all, the deposit lists about 22,000 reagents; this is a random part of those that have a named target and a result. In the full data, 116 (0.52%) were called active. 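Calls depend on retest data that are not deposited; infection was ranked per plate without normalising between plates; the unit of the infection score is not given.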 Unmarked entries are inactive. Reagents against one gene are numbered here. Further read-outs or replicates are left out here. Reagent sequences are not shown. Not stated in the record: the amount of reagent, the time to read-out.

Test: 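Insect host genes that dengue virus relies on to spread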 (primary screen)
Cells: D.Mel-2 cells from Drosophila
Reagent: long dsRNA against Drosophila genes
Challenge: infection with dengue virus type 2; dose and infection time not stated
Measured: 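Cells stained for dengue envelope protein and imaged; percent of infected cells per well on duplicate plates, ranked by infection, with stained nuclei counted for cell number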
Reading the numbers: infection score: higher = more virus-infected cells
Hit rule: 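Low infection ranks in the two replicates (chance level up to 0.065) followed by a retest with a 1.5-fold or larger significant decrease, p below 0.05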
Meaning of the calls: active = confirmed: knock-down lowers infection; inactive = not picked or not confirmed

For CG4914 (GeneID 39597), the entry reads infection score, replicate 1 = 0.49.
With knock-down of CG11159 (GeneID 37341) the results were infection score, replicate 1 = 5.49.
For Dark (GeneID 36914) #1, the values are infection score, replicate 1 = 7.05.
Dark (GeneID 36914) #2 gave infection score, replicate 1 = 4.27.
For Best2 (GeneID 38727), the entry reads infection score, replicate 1 = 0.99.
CG12795 (GeneID 33561) gave infection score, replicate 1 = 5.83.
Zw10 (GeneID 47874) #1 gave infection score, replicate 1 = 2.91.
Zw10 (GeneID 47874) #2 showed infection score, replicate 1 = 2.85.
Knock-down of CG11249 (GeneID 40409) gave: infection score, replicate 1 = 3.98.
With knock-down of CG11975 (GeneID 41074), the screen gave infection score, replicate 1 = 4.5.
Knock-down of Zwilch (GeneID 59247) gave: infection score, replicate 1 = 3.16.
After knock-down of Jhbp1 (GeneID 40613) #1, the screen gave infection score, replicate 1 = 6.34.
Against Jhbp1 (GeneID 40613) #2 the deposit lists infection score, replicate 1 = 6.16.

Entries above whose target name starts with Z or z:
Zw10 (GeneID 47874) #1 — infection score, replicate 1: 2.91
Zw10 (GeneID 47874) #2 — infection score, replicate 1: 2.85
Zwilch (GeneID 59247) — infection score, replicate 1: 3.16
